Reference: article PMC9823235 (2022)

Target: Shiga toxin 2a (Stx2a) holotoxin (enterohemorrhagic Escherichia coli (encoded by lysogenic lambdoid phages)) (UniProt P09385)

Substance: P11, 11 amino-acid peptide mimicking the C-terminal 11 amino acids of the CTD of the ribosomal P-proteins
- Kd: 48 µM
